Patent US20030099935A1 (WHITEHEAD INSTITUTE FOR BIOMEDICAL RESEARCH, published 2003)

Biological target: T1, N36 peptide (HIV-1 gp41 N-terminal ectodomain fragment, […] of gp160) (HIV-1, acetylated N-terminus; C-terminal amide)
T1 construct: Synthetic peptide made by FMOC chemistry; Three N36 helices form the central parallel coiled coil of the N36/C34 six-helix bundle; Residues are numbered by their position in HIV-1 gp160; also called N-peptide; N36 trimer
Assay: protein dissection and biophysical characterisation of the peptide complex

B1: C34 peptide (HIV-1 gp41 C-terminal ectodomain fragment, […] of gp160) (peptide)
peptide: not shown
modifications: acetylated N-terminus; C-terminal amide
notes: Synthetic peptide made by FMOC chemistry; Three C34 helices pack antiparallel on the outside of the N36 trimer; Residues are numbered by their position in HIV-1 gp160; also called C-peptide
binding result: binds
